From patent US20170146519A1, “STING AGONISTS AND METHODS OF SELECTING STING AGONISTS” (priority 2015, published 2017)

Columns and labels:
[1] = system: Chikungunya virus (CHIKV); type: cell-based
[2] = system: Venezuelan Equine Encephalitis Virus (VEEV); type: cell-based

B1: IFNβ: Human recombinant IFNβ obtained from PBL, control stimulus at 1000 U/mL (protein, UniProt P01574 22-187, looked up)
Interferon beta: MSYNLLGFLQRSSNFQCQKLLWQLNGRLEYCLKDRMNFDIPEEIKQLQQFQKEDAALTIYEMLQNIFAIFRQDSSSTGWNETIVENLLANVYHQINHLKTVLEEKLEKEDFTRGKLMSSLHLKRYYGRILHYLKAKEYSHCAWTIVRVEILRNFYFINRLTGYLRN
- CHIKV replication in cells lacking IRF3 [1]: strong anti-Alphaviral state can still be established
- CHIKV replication in cells lacking IPS-1 ([1]; 48 h): diminishes replication of all three virus types by multiple logs
- CHIKV replication in cells lacking STAT1 ([1]; 48 h): detectable yet significant
- CHIKV replication in cells lacking STING ([1]; 48 h): antiviral state can effectively be established
- VEEV replication in cells lacking IRF3 [2]: strong anti-Alphaviral state can still be established
- VEEV replication in cells lacking IPS-1 ([2]; 24 h): diminishes replication of all three virus types by multiple logs
- VEEV replication in cells lacking STAT1 ([2]; 24 h): detectable yet significant
- VEEV replication in cells lacking STING ([2]; 24 h): antiviral state can effectively be established
